The data set deals with the molecule itself. The data set can be described thus: SDS-PAGE without boiling (SDS-stable oligomer), Coomassie staining.

The source of these data is publication PMC12002540, “Vibrio cholerae cytolysin induces pro-inflammatory and death signals through novel TLR assembly” (PLOS Pathogens, 2025).

B1: Vibrio cholerae cytolysin (VCC), mature monomeric form (natural protein)
chain: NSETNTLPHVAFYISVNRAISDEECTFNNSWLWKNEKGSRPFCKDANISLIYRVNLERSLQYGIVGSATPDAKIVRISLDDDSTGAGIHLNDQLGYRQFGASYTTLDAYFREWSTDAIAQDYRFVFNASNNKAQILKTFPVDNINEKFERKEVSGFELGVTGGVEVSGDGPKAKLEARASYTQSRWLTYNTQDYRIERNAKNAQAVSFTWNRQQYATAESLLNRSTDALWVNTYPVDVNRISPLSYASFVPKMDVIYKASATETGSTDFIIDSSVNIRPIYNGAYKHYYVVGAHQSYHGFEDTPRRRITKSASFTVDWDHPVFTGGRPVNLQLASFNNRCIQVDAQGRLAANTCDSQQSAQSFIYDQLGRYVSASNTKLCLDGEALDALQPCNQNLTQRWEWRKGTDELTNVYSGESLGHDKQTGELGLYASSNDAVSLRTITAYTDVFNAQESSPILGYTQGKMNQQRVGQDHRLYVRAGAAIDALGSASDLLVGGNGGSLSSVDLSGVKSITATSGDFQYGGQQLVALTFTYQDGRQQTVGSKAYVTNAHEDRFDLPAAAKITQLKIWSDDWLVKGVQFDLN
With B1, the binding result is listed as “binds”.
